The list shows a part of the results, in another mix than the full data. Activity calls are given as the source filed them.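 How the source made its calls: active means growth inhibition above 50% at the single 2 µM test dose, taken to imply half-maximal potency below 2 µM; inactive means the rest.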

This passage reports growth inhibition results from PubChem BioAssay AID2302 (GlaxoSmithKline (GSK), 2010).

The nature of this assay: antimalarial activity against Dd2 strain (AID 2302).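 Further: 0% = DMSO untreated growth and 100% = chloroquine plus artemisinin killed control.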 The conditions noted are these: P. falciparum Dd2 in RBCs, LDH growth readout, 72 h; at 2 µM; hits give high values.
As to `CC(C)(C)c1cc2cc(N(C(=O)c3ccc(C(F)(F)F)cc3)C3CCN(Cc4ccccc4)CC3)ccc2[nH]1`, the growth inhibition is inactive: 22%. In the case of `Cn1c(=O)n(C2CCN(CCCC(c3ccc(F)cc3)c3ccc(F)cc3)CC2)c2ccccc21`, the growth inhibition is inactive: 2%.
